From patent US10227373B2 (priority 2014, dated 2019) come the findings set out here.

The test system of this data set is MDCK cells. Nature of the data set: Cell viability (CC50), MDCK host cells.

What is called CC50 is the concentration that lowers cell viability or growth by half. Low values mean greater toxicity to the cells, high ones lower toxicity to the cells. The compound `Nc1ncc(Br)c2c1ncn2[C@@H]1C=C(CO)[C@@H](O)[C@H]1O` [3-Bromo-3-deazaneplanocin] had a CC50 (Flu A (H1N1) assay) of 220 µM, a 50% cytotoxic concentration (CC50) (Flu A (H3N2) assay) above 290 µM and a CC50 (Influenza B assay) of 1.1 µM.
